System: P. aeruginosa Psl or Pel arabinose inducible cultures
Test: Biofilm prevention by enzyme pre-coated on polystyrene or glass

B1: PslG31-442: soluble PslG glycosyl hydrolase construct, residues 31-442, P. aeruginosa PAO1, SEQ ID NO: 11 (protein, listed as Pseudomonas aeruginosa)
chain: EIQVLKAPRAVVWKDFLGVNAQFLWFSPERYNKQIDRLQDLGLEWVRLDLHWDRLETAEDQYQLASLDQLVKDLEARQLKSVFYLVGSARFITTAPFYSPFQDQYPPRDPEVFARRMAMLSQRYPSVAAWQVWNEPNLIGFWRPKADPEGYAKLLQASTIALRMVDPEKPVVSAGMAFFSEMPDGRTMFDALGHLGVESLGTIATYHPYTQLPEGNYPWNLDFVSHANQINRALRNAGVPAIWSTEWGWSAYKGPKELQDIIGVEGQADYVLRRLALMSALDYDRIFLFTLSDLDQRASVRDRDYGLLDLDANPKPVYLALQRFLKVTGPKLRPADPPVTEDLPDGSFSIGWTREDGRNVWLFWSARGGNVRLPKLKEATLHDPLSGKVTPLSGSDGLEVPVKSSLQMLVWE
For B1, the “duration of biofilm prevention on covalently linked glass” value (covalent attachment to glass) was “at least 8 days”.

B2: PelA47-303: soluble PelA hydrolase domain, residues 47-303, P. aeruginosa PAO1, SEQ ID NO: 12 (protein, listed as Pseudomonas aeruginosa)
chain: GGPSSVAFWYAERPPLAELSQFDWVVLEAAHLKPADVGYLKEQGSTPFAYLSVGEFDGDAAAIADSGLARGKSAVRNQAWNSQVMDLAAPSWRAHLLKRAAELRKQGYAGLFLDTLDSFQLQAEERREGQRRALASFLAQLHRQEPGLKLFFNRGFEVLPELPGVASAVAVESIHAGWDAAAGQYREVPQDDRDWLKGHLDALRAQGMPIVAIDYLPPERRDEARALAARLRSEGYVPFVSTPALDYLGVSDVEVQP
With B2 the “biofilm in polystyrene wells pre-coated with protein” value (40 μg/mL coating, crystal violet) was “completely abrogated biofilm”.
